Laboratory results as given in paper PMC4278586.

Key:
[1] = target: full-length gp120 monomer (HIV-1 (isolate not stated)) (UniProt P20871); test: ITC
[2] = target: full-length gp120 pre-complexed with PGT124 (HIV-1 (isolate not stated) | human) (UniProt P20871); test: ITC

## two-domain soluble CD4 (from UniProt P01730 26-208) (domain or fragment)
[1]
  Kd: 55 nM
[2]
  Kd: 50 nM
